Experimental data reported in paper PMC9144282 (Viruses, 2022).

How the values were obtained:
[1] = test system: HT-29
[2] = test system: HEp-2
[3] = test system: L41

Substance: Li^+[Ag^+2Cys2^−(OH^−)2(NH3)2] [Ag-2S]
- CC50, corresponding concentration of Ag+ [1]: 15.9 (3.24 Ag+) μg/mL
- CC50, corresponding concentration of Ag+ [2]: 5.3 (1.08 Ag+) μg/mL
- CC50, corresponding concentration of Ag+ [3]: 21.2 (4.32 Ag+) μg/mL
